Results deposited as PubChem BioAssay AID1259414 (Drosophila RNAi Screening Center, 2018).
In all, the deposit lists about 24,000 reagents; this is a random part of those that have a named target and a result. Of all reagents, about 1,210 (5%) were called active. 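Inactive calls also include excluded dsRNAs with several or no targets, genes unexpressed in JW18, and well A1, regardless of score.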 Names joined by + are all predicted targets of the reagent.

Assay: 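Fly genes that alter Wolbachia amount inside host cells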 (primary screen)
Cells: Drosophila JW18 cells infected with Wolbachia
Reagents: long dsRNA against Drosophila genes, 0.25 µg dsRNA per well of a 384-well plate
Time to read-out: 5 days
Treatment: cells persistently infected with Wolbachia before knock-down; no added drug
Measurement: 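Imaged fluorescence in situ signal for Wolbachia 23S rRNA per DAPI-counted host cell, given as a robust z-score within each plate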
Scale: Wolbachia per cell robust z: higher = more Wolbachia per host cell than the plate typical
Active means: 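Active if absolute robust z reaches 1.5 in two or more of three replicates, leaving out multi- or no-target dsRNAs, genes unexpressed in JW18 and A1 wells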

| target | amplicon | Wolbachia per cell robust z, rep 1 | Wolbachia per cell robust z, rep 2 | Wolbachia per cell robust z, rep 3 | outcome |
| --- | --- | --- | --- | --- | --- |
| Mvd | DRSC20096 | 0.404 | -1.28 | -0.645 | inactive |
| Mvd | DRSC41355 | -2.54 | 0.107 | -0.387 | inactive |
| Smurf | DRSC07641 | -1.69 | 0.506 | -0.0815 | inactive |
| Smurf | DRSC29832 | 0.327 | 0.0203 | 0.304 | inactive |
| CG7582 | DRSC16261 | -0.338 | -0.982 | -2.46 | inactive |
| CG34284 | DRSC14773 | 1.27 | -2.34 | 0.739 | inactive |
| Adhr + Adh | DRSC01862 | 0.188 | 1.09 | -0.119 | inactive |
| Adhr + Adh | DRSC01863 | 0.197 | -1.86 | 0.353 | inactive |
| IFT46 | DRSC02462 | -1.33 | -0.196 | -0.445 | inactive |
| bc10 | DRSC11326 | -3.8 | 0.492 | -0.5 | inactive |
| CG5062 | DRSC18385 | 0.402 | 0.861 | -4.01 | inactive |
| CG1998 | DRSC19829 | -1.37 | 1.34 | 1.13 | inactive |
| ND-B18 | DRSC19947 | 0.39 | 0.284 | 0.411 | inactive |
| ND-B18 | DRSC27676 | -6.3 | 0.502 | -0.288 | inactive |
| emei | DRSC10897 | 0.201 | -0.701 | 0.778 | inactive |
| emei | DRSC22684 | -0.128 | -0.17 | 0.323 | inactive |
| CG7755 | DRSC07040 | -1.16 | -0.0048 | -3.05 | inactive |
| CG32181 | DRSC22635 | 0.429 | 0.853 | 1.33 | inactive |
| CG32181 | DRSC26268 | 0.0642 | -0.0497 | -0.994 | inactive |
| CR33013 | DRSC06286 | -0.431 | -2.46 | -0.194 | inactive |
| CR33013 | DRSC25681 | 0.912 | 0.688 | -0.533 | inactive |
| HP4 | DRSC10958 | -8.64 | -0.211 | -2.13 | active |
| CG1888 | DRSC06797 | -1.02 | -0.545 | -0.541 | inactive |
| verm | DRSC11038 | 0.0819 | -1.76 | -4.44 | inactive |
| verm | DRSC24665 | 0.385 | 0.291 | -0.462 | inactive |
| Cpr92F | DRSC15819 | -1.02 | -1.01 | -2.06 | inactive |
| hui | DRSC05977 | 0.191 | -1.21 | -4.06 | inactive |
| hui | DRSC28947 | -4.29 | -9.15 | -6.44 | inactive |
| Nmdar1 | DRSC12071 | -7.2 | -10.4 | -5.43 | inactive |
| Nmdar1 | DRSC12356 | -0.0848 | -0.268 | -6.72 | inactive |
| Nmdar1 | DRSC24657 | -0.338 | -4.2 | -0.239 | inactive |
| Rrp42 | DRSC07161 | 0.905 | 0.6 | 0.796 | inactive |
| armi | DRSC08193 | -0.0351 | 0.156 | 0.602 | inactive |
| Mlf | DRSC07472 | 1.07 | 2.43 | 1.53 | active |
| Mlf | DRSC23495 | -0.68 | 0.193 | -0.891 | inactive |
| CG7272 | DRSC10795 | -0.278 | -0.74 | -0.196 | inactive |
| GMF | DRSC01928 | 0.208 | -1.39 | -0.608 | inactive |
| mdlc | DRSC15690 | 1.56 | 2.01 | -0.624 | active |
| mdlc | DRSC28632 | 0.482 | 0.999 | 1.18 | inactive |
| Hr4 | DRSC18599 | 1.52 | 0.376 | 1.76 | active |
| Hr4 | DRSC23080 | 0.203 | -2.05 | 0.927 | inactive |
| Hr4 | DRSC23251 | 0.139 | -0.353 | -0.361 | inactive |
| Hr4 | DRSC25130 | -1.21 | 0.645 | 2.23 | inactive |
| Hr4 | DRSC27857 | 0.372 | -1.05 | -0.821 | inactive |
| Hr4 | DRSC28298 | 0.442 | 0.313 | -0.278 | inactive |
| Vm34Ca | DRSC03475 | 0.759 | 0.409 | -1.47 | inactive |
| Vm34Ca | DRSC25260 | 0.895 | -1.18 | -0.383 | inactive |

Part of the list above, limited to “Wolbachia per cell robust z, rep 2”.
Nmdar1 [DRSC12071]	-10.4
Nmdar1 [DRSC12356]	-0.268
Nmdar1 [DRSC24657]	-4.2
Rrp42 [DRSC07161]	0.6
armi [DRSC08193]	0.156
Mlf [DRSC07472]	2.43
Mlf [DRSC23495]	0.193
